Measured values from several laboratories, pooled; numbers as filed in NIAID ChemDB.

MIC50, MIC90 and the like: level of inhibition, or share of isolates inhibited. MIC bound: limit read from a one-dose screen. Percent inhibition refers to the dose given; in toxicity tests it is the harm to the cells. Lines come from different laboratories, so protocols vary. ICn is the concentration giving n% inhibition. Blank or dashed fields: not listed here.

{"structure": "NCCc1cnc[nH]1", "test": "culture", "species": "Mycobacterium tuberculosis", "strain": "H37Rv", "read-out": "MIC", "result": ">100 µg/mL"}
{"structure": "CCNc1cncc(-c2ccc(C(N)=O)cc2)n1", "test": "target", "species": "Cytomegalovirus", "protein": "UL97 kinase", "read-out": "IC50", "result": "<10 µM"}
{"structure": "O=C(O)/C=C\\C(=O)O", "test": "culture", "species": "Mycobacterium tuberculosis", "strain": "H37Rv", "read-out": "MIC", "result": ">100 µg/mL"}
{"structure": "COc1ccc(/C(CC2OC(=O)c3ccccc32)=N/NC(=O)C[N+](C)(C)C)cc1.[Cl-]", "test": "culture", "species": "Mycobacterium tuberculosis", "strain": "H37Rv", "method": "BACTEC", "read-out": "inhibition", "tested at": "12.5 µg/mL", "result": "-5%"}
{"structure": "CSc1ccccc1-c1cncc(N2CCN(c3ccncc3)CC2)n1", "test": "target", "species": "Cytomegalovirus", "protein": "UL97 kinase", "read-out": "inhibition", "tested at": "10 µM", "result": ">15%"}
{"structure": "CC(C)(C)c1ncc(CCCN=C(N)N)[nH]c1=O", "test": "culture", "species": "Mycobacterium tuberculosis", "strain": "INH-r", "read-out": "MIC", "result": "6.3 µg/mL"}
{"structure": "CC(=O)c1cccc(-c2cncc(N3CCN(c4ccc(F)cc4F)CC3)n2)c1", "test": "target", "species": "Cytomegalovirus", "protein": "UL97 kinase", "read-out": "IC50", "result": "<100 µM"}
{"structure": "O=c1[nH]c(=O)c2c([nH]1)oc1ccccc12", "test": "culture", "species": "Mycobacterium tuberculosis", "strain": "H37Rv", "method": "BACTEC", "read-out": "inhibition", "tested at": "12.5 µg/mL", "result": "-4%"}
{"structure": "Cc1cc(C)c(N(C)C(=O)CCC(=O)O)c(I)c1", "test": "culture", "species": "Mycobacterium tuberculosis", "strain": "H37Rv", "read-out": "MIC", "result": "100 µg/mL"}
{"structure": "O=C(N/N=C/NN/C=N/NC(=O)C1CCS(=O)(=O)C1)C1CCS(=O)(=O)C1", "test": "culture", "species": "Mycobacterium tuberculosis", "strain": "H37Rv", "method": "BACTEC", "read-out": "MIC bound", "result": ">12.5 µg/mL"}
{"structure": "CCCCSCCOCCOc1c(Cl)cc(Cl)c(Cl)c1Cl", "test": "culture", "species": "Mycobacterium tuberculosis", "strain": "H37Rv", "read-out": "MIC", "result": "25 µg/mL"}
{"structure": "C=CCc1ccc(OC)c(OC)c1", "test": "culture", "species": "Candida tropicalis", "strain": "2557", "method": "turbidity", "read-out": "MIC90", "result": "340 µg/mL"}
{"structure": "O=C(Nc1ccc(Br)cc1)c1cnccn1", "test": "culture", "species": "Mycobacterium tuberculosis", "strain": "PZA-R", "read-out": "MIC", "result": ">12.5 µg/mL"}
{"structure": "Cc1cc(=O)[nH]c(N)n1", "test": "culture", "species": "Mycobacterium tuberculosis", "strain": "H37Rv", "read-out": "MIC", "result": ">100 µg/mL"}
{"structure": "Cc1noc(NS(=O)(=O)c2ccc(NCc3c4ccccc4nc4cc(Cl)ccc34)cc2)c1C", "test": "culture", "species": "Mycobacterium tuberculosis", "strain": "H37Rv", "read-out": "MIC", "result": ">12.5 µg/mL"}
{"structure": "NC(=O)NC1NC(=O)NC1=O", "test": "culture", "species": "Mycobacterium tuberculosis", "strain": "H37Rv", "read-out": "MIC", "result": "100 µg/mL"}
{"structure": "Fc1ccc(N2CCCCC2)c(NC(=S)c2ccncc2)c1", "test": "host protein", "protein": "Rse", "method": "kinase activity", "read-out": "inhibition", "tested at": "10 µM", "result": "-32%"}
{"structure": "Cc1nn2c(=O)c([N+](=O)[O-])c(/C=C/c3ccc(F)cc3)nc2s1", "test": "culture", "species": "Mycobacterium tuberculosis", "strain": "H37Rv", "method": "resazurin", "read-out": "MIC bound", "result": ">6.25 µg/mL"}
{"structure": "COc1ccc(N2CCN(c3cncc(-c4ccc(C#N)cc4)n3)CC2)cc1", "test": "target", "species": "Cytomegalovirus", "protein": "UL97 kinase", "read-out": "inhibition", "tested at": "1 µM", "result": "<50%"}
{"structure": "Cc1ccc(Nc2ccc(N)c3c2C(=O)c2ccccc2C3=O)cc1", "test": "culture", "species": "Mycobacterium tuberculosis", "strain": "H37Rv", "read-out": "MIC", "result": ">100 µg/mL"}
{"structure": "CC(C)(O)CC[C@@H](O)[C@](C)(O)[C@H]1CC[C@@]2(O)C3=CC(=O)[C@@H]4C[C@@H](O)[C@@H](O)C[C@]4(C)[C@H]3CC[C@]12C", "test": "culture", "species": "Mycobacterium tuberculosis", "strain": "H37Rv", "method": "BACTEC", "read-out": "MIC", "result": "≥12.5 µg/mL"}
{"structure": "O=C(O)CCc1nc2ccccc2[nH]1", "test": "culture", "species": "Mycobacterium tuberculosis", "strain": "H37Rv", "read-out": "MIC", "result": ">100 µg/mL"}
{"structure": "CCCC[N+]12CC=C3COC(=O)C(C)(O)C(C)(O)C(C)C(=O)OC(CC1)C32.[Br-]", "test": "culture", "species": "Mycobacterium tuberculosis", "strain": "H37Rv", "method": "BACTEC", "read-out": "inhibition", "tested at": "12.5 µg/mL", "result": "13%"}
{"structure": "CC(=O)c1ccc(N2CCN(c3cncc(-c4cccc5ccccc45)n3)CC2)cc1", "test": "target", "species": "Cytomegalovirus", "protein": "UL97 kinase", "read-out": "inhibition", "tested at": "10 µM", "result": ">15%"}
{"structure": "COC(=O)CC1(C(=O)OC)Nc2cc(Cl)c(Cl)cc2S(=O)(=O)N1O", "test": "culture", "species": "Mycobacterium tuberculosis", "strain": "H37Rv", "method": "BACTEC", "read-out": "MIC bound", "result": ">6.25 µg/mL"}
{"structure": "Clc1ccc(N2CCN(c3cncc(-c4ccc5ccccc5c4)n3)CC2)cc1", "test": "target", "species": "Cytomegalovirus", "protein": "UL97 kinase", "read-out": "IC50", "result": "<10 µM"}
{"structure": "CCOc1c(N=Nc2ccccc2OC)c(-c2ccccc2)nn1C(=S)S", "test": "culture", "species": "Mycobacterium tuberculosis", "strain": "H37Rv", "method": "BACTEC", "read-out": "MIC bound", "result": ">12.5 µg/mL"}
{"structure": "Fc1ccc(-c2cncc(NCc3ccco3)n2)c(F)c1", "test": "target", "species": "Cytomegalovirus", "protein": "UL97 kinase", "read-out": "inhibition", "tested at": "1 µM", "result": "<50%"}
{"structure": "CCCCCC1(c2ccccc2)OC(=O)NC1=O", "test": "culture", "species": "Mycobacterium tuberculosis", "strain": "H37Rv", "read-out": "MIC", "result": ">100 µg/mL"}
{"structure": "COc1ccc(N2CCN(c3cncc(-c4ccc(F)cc4)n3)CC2)cc1", "test": "target", "species": "Cytomegalovirus", "protein": "UL97 kinase", "read-out": "inhibition", "tested at": "1 µM", "result": "<50%"}
{"structure": "c1ccc2c(c1)Nc1ccccc1S2", "test": "culture", "species": "Mycobacterium tuberculosis", "strain": "H37Rv", "read-out": "MIC", "result": ">100 µg/mL"}
{"structure": "CSc1ccc(-c2cncc(N3CCN(c4ccc(F)cc4)CC3)n2)cc1", "test": "target", "species": "Cytomegalovirus", "protein": "UL97 kinase", "read-out": "inhibition", "tested at": "1 µM", "result": "<50%"}
{"structure": "CCOC(=O)c1cc(-c2ccccc2)nc2ccc(OC)cc12", "test": "culture", "species": "Mycobacterium tuberculosis", "strain": "H37Rv", "read-out": "MIC", "result": ">100 µg/mL"}

4 of the rows above, restated:

structure	test	species	strain	protein	method	read-out	tested at	result
Cc1cc(=O)[nH]c(N)n1	culture	Mycobacterium tuberculosis	H37Rv			MIC		>100 µg/mL
Clc1ccc(N2CCN(c3cncc(-c4ccc5ccccc5c4)n3)CC2)cc1	target	Cytomegalovirus		UL97 kinase		IC50		<10 µM
O=c1[nH]c(=O)c2c([nH]1)oc1ccccc12	culture	Mycobacterium tuberculosis	H37Rv		BACTEC	inhibition	12.5 µg/mL	-4%
Fc1ccc(-c2cncc(NCc3ccco3)n2)c(F)c1	target	Cytomegalovirus		UL97 kinase		inhibition	1 µM	<50%